Pooled drug test results. Numbers come from NIAID ChemDB, via PubChem.

Common to all: target-level tests; species: Toxoplasma gondii

Conditions beyond the fields shown may differ between rows. Blank or dashed fields: not listed here. Inhibition is in % at the dose shown (toxicity tests: loss of growth or viability). ICn is the concentration giving n% inhibition.

smiles | measure | tested at | protein | strain or isolate | result
Cc1c(CNc2ccc(Cl)c(C(=O)NC(CC(=O)O)C(=O)O)c2)ccc2nc(N)nc(N)c12 | IC50 |  | DHFR | RH | 0.0104 µM
O=c1cc[nH]c(=O)o1 | IC50 |  | Uracil phosphoribosyltransferase | RH | >2000 µM
CNc1nc2nc[nH]c2c(=O)[nH]1 | IC50 |  | Phosphoribosyltransferase | RH | >900 µM
Nc1[nH]c(=S)[nH]c(=O)c1N=O | inhibition | 2000 µM | Uracil phosphoribosyltransferase | RH | <5%
O=c1[nH]c2nc[nH]c(=O)c2[nH]1 | IC50 |  | Phosphoribosyltransferase | RH | >900 µM
CN(Cc1cnc2nc(N)nc(N)c2n1)c1ccc(C(=O)N[C@H](CCC(=O)O)C(=O)O)cc1I | IC50 |  | DHFR | RH | 0.0016 µM
Nc1nc2[nH]ccc2c(=O)[nH]1 | Ki |  | Phosphoribosyltransferase | RH | 93 µM
O=c1[nH]cc(F)c(=O)[nH]1 | Ki |  | Uracil phosphoribosyltransferase | RH | 280 µM
COc1ccc2c(c1)CCc1nc(N)nc(N)c1-2 | IC50 |  | Dihydrofolate reductase |  | 2.5 µM
Nc1ccc(S(=O)(=O)Nc2cc(Br)cc(Br)c2)cc1 | Ki |  | DHPS |  | 3.1 µM
Cc1ccc2c(ccc3nc(N)nc(N)c32)c1 | IC50 |  | Dihydrofolate reductase |  | 0.052 µM
O=c1cc[nH]c(=O)[nH]1 | Ki |  | Phosphoribosyltransferase | RH | 808 µM
Nc1ccc(S(=O)(=O)Nc2cnc3ccccc3n2)cc1 | IC50 |  | DHPS |  | 450 µM
Nc1nc(N)c2c(n1)Cc1c(Cl)cccc1-2 | IC50 |  | Dihydrofolate reductase |  | 4.7 µM
Cc1c[nH]c(=O)[nH]c1=O | inhibition | 2000 µM | Uracil phosphoribosyltransferase | RH | <5%
Nc1ccc(S(=O)(=O)NC2CCC(O)CC2)cc1 | IC50 |  | DHPS |  | <270 µM
Cn1c(=O)[nH]c(=O)c2[nH]cnc21 | IC50 |  | Phosphoribosyltransferase | RH | >900 µM
Nc1ccc(S(=O)(=O)Nc2ccccc2C(=O)O)cc1 | IC50 |  | DHPS |  | 740 µM
CCN(CC)c1ccc(-c2nc3c(N)nc(N)nc3nc2N)cc1 | IC50 |  | DHFR | RH | >74 µM
CN1C(=O)N(C)C(=O)C(C)(NS(=O)(=O)c2ccc(N)cc2)C1=O | IC50 |  | DHPS |  | <510 µM
COC(=O)c1nc[nH]c1CO | inhibition | 900 µM | Phosphoribosyltransferase | RH | <10%
Nc1nccc(=O)[nH]1 | inhibition | 2000 µM | Uracil phosphoribosyltransferase | RH | <5%
Nc1nc(Cl)nc2nc[nH]c12 | Ki |  | Phosphoribosyltransferase | RH | 630 µM
CC1(C)CN=C(NS(=O)(=O)c2ccc(N)cc2)S1 | IC50 |  | DHPS |  | 300 µM
O=c1[nH]c(=S)c2[nH]cnc2[nH]1 | Ki |  | Phosphoribosyltransferase | RH | 318 µM
Nc1nc(N)c2c(ccc3ccc(Cl)cc32)n1 | IC50 |  | Dihydrofolate reductase |  | 0.011 µM
CC1(C)N=C(N)N=C(N)N1c1cccc(OCCCOc2ccc(N)cc2)c1 | IC50 |  | DHFR | RH | 0.03 µM
COc1cc(NS(=O)(=O)c2ccc(N)cc2)c2ncccc2c1 | IC50 |  | DHPS |  | 570 µM
O=C(O)c1cnccn1 | IC50 |  | Uracil phosphoribosyltransferase | RH | >2000 µM
Cc1nc2ccccc2nc1NS(=O)(=O)c1ccc(N)cc1 | IC50 |  | DHPS |  | 1680 µM
Nc1nc(N)c(-c2ccc(Cl)cc2)c(C(F)(F)F)n1 | IC50 |  | DHFR | RH | >42 µM
CC1CSC(NS(=O)(=O)c2ccc(N)cc2)=N1 | IC50 |  | DHPS |  | >1000 µM
Nc1nc(N)c2c(ccc3c(Cl)c(Cl)ccc32)n1 | IC50 |  | Dihydrofolate reductase |  | 0.22 µM
CC1(C)N=C(N)N=C(N)N1c1cccc(S(=O)(=O)F)c1.CCS(=O)(=O)O | IC50 |  | DHFR | RH | 0.34 µM

For reference, 4 entries again:

smiles	measure	tested at	protein	strain or isolate	result
CNc1nc2nc[nH]c2c(=O)[nH]1	IC50		Phosphoribosyltransferase	RH	>900 µM
Cc1nc2ccccc2nc1NS(=O)(=O)c1ccc(N)cc1	IC50		DHPS		1680 µM
COc1cc(NS(=O)(=O)c2ccc(N)cc2)c2ncccc2c1	IC50		DHPS		570 µM
COC(=O)c1nc[nH]c1CO	inhibition	900 µM	Phosphoribosyltransferase	RH	<10%